Compound potency records, mixed from different reports. Data source: NIAID ChemDB in PubChem.

Shared fields: cytotoxicity tests; cell line: CEM; read-out: CC50

a–b is a range or a potency band. CCn: concentration that lowers growth or viability of the cells by n%. Lines come from different laboratories, so protocols vary.

CC(C)(C)C1CCC2(CC1)CC(O)=C(Sc1ccccc1)C(=O)O2 ; result: 5 µM
CC[C@@H](O)C1=C[C@@H](n2cnc3c(N)ncnc32)[C@H](O)[C@@H]1O ; result: 34 µg/mL
Cc1c(Cc2cccc3ccccc23)n(COCCO)c(=O)[nH]c1=O ; result: 125 µM
NC(=O)C[C@H](NC(=O)c1ccccc1SSc1ccccc1C(=O)N[C@@H](CC(N)=O)C(N)=O)C(N)=O ; result: 21 µM
S=C1NNC2(C(=S)N1)c1ccccc1-c1ccccc12 ; result: 110 µM
C/C=C/COc1cc(NC(=S)c2ccn(C)c2C)ccc1Cl ; result: 5.2 µg/mL
CCCCCCCCCCCCCCCC(=O)Nc1nc(N)nc2c1ncn2[C@H]1CO[C@@H](COP(=O)(N[C@@H](C)C(=O)OCC)Oc2ccccc2)O1 ; result: 12 µM
COc1cc2cc[n+](CCC(C)C)c3c2c(c1OC)NC=C3 ; result: 10.9 µM
O=C(O)CCCCCNC(=O)c1ccccc1SSc1ccccc1C(=O)NCCCCCC(=O)O ; result: 80 µM
Cc1cn([C@H]2C[C@H](O)[C@@H](COC(=O)CCCCCCCCCCBr)O2)c(=O)[nH]c1=O ; result: 54 µM
NC(CSCc1ccccc1)(CSCc1ccccc1)C(=O)O ; result: >100 µM
O=C(c1c(O)cc(O)cc1O)c1c(-c2ccc(O)cc2)oc2cc(O)c3c(c12)O[C@H](c1ccc(O)cc1)[C@@H](O)C3 ; result: 111–147 µM
Cc1sccc1C(=O)Nc1ccc(Cl)c(/C=N/OC(C)(C)C)c1 ; result: 14 µg/mL
O=C(NC1CCCCC1)c1ccccc1SSc1ccccc1C(=O)NC1CCCCC1 ; result: 7 µM
C=CCNC(=O)NC1=CSC2=NC(=O)C3(NN12)c1ccccc1-c1ccccc13 ; result: 50 µM
CCCCN(C[C@@H](O)[C@H](Cc1ccccc1)NC(=O)[C@H](C)CS(C)(=O)=O)S(=O)(=O)c1ccc(OC)cc1 ; result: >1000 µM
CCCCCCCCCCCCCC(=O)OC[C@H]1O[C@@H](n2cc(C)c(=O)[nH]c2=O)C[C@@H]1O ; result: 12 µM
CCNC(=O)c1ccccc1SSc1ccccc1C(=O)NCC ; result: 5.1 µM
Cc1cc(Cl)cc(S)c1S(=O)(=O)Nc1nnc2c3ccccc3cnn12 ; result: >200 µM
CCC1=C(C(=O)Nc2ccc(Cl)c(C(=O)OC3CCCCC3)c2)SCCO1 ; result: 11.4 µg/mL
CC(C)c1c(Cc2cccc3ccccc23)n(COCc2ccccc2)c(=O)[nH]c1=O ; result: 19.3 µM
Cc1ccsc1C(=S)Nc1ccc(Cl)c(C(=O)OC(C(C)C)C(C)C)c1 ; result: ≥100 µg/mL
C=C[C@H](O)C1=C[C@@H](n2cnc3c(N)ncnc32)[C@H](O)[C@@H]1O ; result: 180 µg/mL
COc1cc2ccnc3c2c(c1OCCCCCCOc1c(OC)cc2ccnc4c2c1N(C)C=C4)N(C)C=C3 ; result: <1 µM
CC(C)CCN(C[C@@H](O)[C@H](Cc1ccccc1)NC(=O)[C@H](C)CS(C)(=O)=O)S(=O)(=O)c1ccc(N)cc1 ; result: 170 µM
CCCCCCCCCCCCN1C=Cc2nccc3cc(OC)c(OC)c1c23 ; result: <1 µM
O=C1NC(=O)C(CSCc2cccs2)(CSCc2cccs2)N1 ; result: >100 µM
CO/N=C/c1cc(NC(=O)c2ccoc2C)ccc1OC ; result: >100 µg/mL
NC1=NS(=O)(=O)N(Cc2ccccc2)c2nc[nH]c21 ; result: 91.3 µg/mL
Nc1ccc(NC(=O)c2ccccc2SSc2ccccc2C(=O)Nc2ccc(N)cc2)cc1 ; result: 8 µM
CC(C)[C@@H](CC(=O)O)NC(=O)c1ccccc1SSc1ccccc1C(=O)N[C@H](CC(=O)O)C(C)C ; result: >100 µM
O=C(Nc1ccc(O)cc1)c1ccccc1SSc1ccccc1C(=O)Nc1ccc(O)cc1 ; result: 33 µM
COc1cc2ccnc3c2c(c1OS(=O)(=O)c1ccccc1)N(C)C=C3 ; result: 2 µM
O=c1[nH]cnc2c1ncn2[C@@H]1C[C@@H](F)[C@H](CO)O1 ; result: >100 µM
Cc1ccsc1C(=S)Nc1ccc(Cl)c(/C=N/OC(C)C)c1 ; result: 13 µg/mL
CCCc1c(Cc2cccc3ccccc23)n(COCc2ccccc2)c(=O)[nH]c1=O ; result: 20.7 µM
O=C(c1ccccc1SSc1ccccc1C(=O)N1CCSCC1)N1CCSCC1 ; result: 42 µM
CC(C)C(OC(=O)c1cc(NC(=S)c2ccc[nH]2)ccc1Cl)C(C)C ; result: >100 µg/mL
COc1ccc(S(=O)(=O)N(CC(C)C)C[C@@H](O)[C@H](Cc2ccccc2)NC(=O)[C@H](C)CS(C)(=O)=O)cc1 ; result: >1000 µM
Cc1cc(S(=O)(=O)Nc2nnc3cnc4ccccc4n23)c(S)cc1Cl ; result: >200 µM
Cc1occc1C(=S)Nc1ccc(Cl)c(OC2CCCCC2)c1 ; result: 5.3 µg/mL
O=C1NC(SC(SC2=NNC3(C(=O)N2)c2ccccc2-c2ccccc23)=C(SC2=NNC3(C(=O)N2)c2ccccc2-c2ccccc23)SC2=NNC3(C(=O)N2)c2ccccc2-c2ccccc23)=NNC12c1ccccc1-c1ccccc12 ; result: 79 µM
Nc1nc(=O)n([C@H]2CC[C@@H](CO)O2)cc1F ; result: >40 µM
Cc1cn([C@H]2C[C@H](O)[C@@H](COC(=O)CCCCCCCCCCCN=[N+]=[N-])O2)c(=O)[nH]c1=O ; result: >21 µM
Nc1ncnc2c1ncn2[C@@H]1C[C@@H](F)[C@H](CO)O1 ; result: >100 µM
CCCCCCCC(=O)Nc1nc(N)nc2c1ncn2[C@H]1CO[C@@H](COP(=O)(N[C@@H](C)C(=O)OCC)Oc2ccccc2)O1 ; result: 16 µM
CCCCN1C=Cc2nccc3cc(OC)c(OC)c1c23 ; result: 5.3 µM
C=CCOc1cc(NC(=S)c2sccc2C)ccc1OC ; result: 7.1 µg/mL
CCCCCCCCCC[N+](C)(C)CCCNCc1c(O)cc2c(c1O)-c1cc(ccc1O)[C@H]1NC(=O)[C@@H]3NC(=O)C4NC(=O)[C@@H](Cc5ccc(c(Cl)c5)Oc5cc3cc(c5O)Oc3ccc(cc3Cl)[C@@H](O)[C@H](NC1=O)C(=O)N[C@@H]2C(=O)O)NC(=O)[C@H](N)c1ccc(O)c(c1)Oc1cc(O)cc4c1 ; result: 74 µM
Cc1c(Cc2ccc3ccccc3c2)n(COCc2ccccc2)c(=O)[nH]c1=O ; result: 24.3 µM
O=C1CSC(C23CC4CC(CC(C4)C2)C3)N1c1ccccn1 ; result: 318 µM
CCSCCCCCCCCCCC(=O)OC[C@H]1O[C@@H](n2cc(C)c(=O)[nH]c2=O)C[C@@H]1O ; result: 41 µM
Nc1nc2c(ncn2[C@@H]2C[C@@H](F)[C@H](CO)O2)c(=O)[nH]1 ; result: >100 µM
CC(C)CS[C@@H]1C=C[C@H](n2cnc3c(N)ncnc32)C1 ; result: 18 µg/mL
CCOCn1c(Cc2cccc3ccccc23)c(CC)c(=O)[nH]c1=O ; result: 88.4 µM
O=C(O)CC[C@@H](NC(=O)c1ccccc1SSc1ccccc1C(=O)N[C@H](CCC(=O)O)C1CCCCC1)C1CCCCC1 ; result: 24 µM
S=C1NC(=S)C(CSCc2ccccc2)(CSCc2ccccc2)N1 ; result: >16 µM
COc1ccccc1C(=O)Nc1ccc(Cl)c(C(=O)OC2CCCC2)c1 ; result: >100 µg/mL
Nc1ccc(CSCC2(CSCc3ccc(N)cc3)NC(=O)NC2=O)cc1 ; result: >100 µM
Cc1sccc1C(=S)Nc1ccc(Cl)c(C(=O)OC(C)C)c1 ; result: 5.9 µg/mL
Cc1cn([C@H]2C=C[C@@H](CO)O2)c(=O)[nH]c1=O ; result: 174 µM
N#Cc1ccc(CSCC2(CSCc3ccc(C#N)cc3)NC(=O)NC2=O)cc1 ; result: >15 µM
Cc1sccc1C(=O)Nc1ccc(Cl)c(OCC2CCCC2)c1 ; result: 5 µg/mL
O=C1NC(=O)C(CSC(=O)c2ccccc2)(CSC(=O)c2ccccc2)N1 ; result: >31 µM
CCCCCCCCCC(=O)Nc1nc(N)nc2c1ncn2[C@H]1CO[C@@H](COP(=O)(N[C@@H](C)C(=O)OCC)Oc2ccccc2)O1 ; result: 13 µM
O=C1NC(=O)C(COCc2ccccc2)(COCc2ccccc2)N1 ; result: >100 µM
CCCCCCCCCCCC(=O)Nc1nc(N)nc2c1ncn2[C@H]1CO[C@@H](COP(=O)(N[C@@H](C)C(=O)OCC)Oc2ccccc2)O1 ; result: 12 µM
O=C1N=C2SC=C(NC(=S)Nc3ccccc3)N2NC12c1ccccc1-c1ccccc12 ; result: 82 µM
C#C[C@@H](O)C1=C[C@@H](n2cnc3c(N)ncnc32)[C@H](O)[C@@H]1O ; result: 0.45 µg/mL
CCCNC(=O)c1ccccc1SSc1ccccc1C(=O)NCCC ; result: 19 µM
O=C1NC(=O)C(CSCc2ccccn2)(CSCc2ccccn2)N1 ; result: >100 µM
C#CCOc1cc(NC(=S)c2ccoc2C)ccc1Cl ; result: 18 µg/mL
Cc1cc(S(=O)(=O)Nc2nnc3c4ccccc4ccn23)c(S)cc1Cl ; result: >200 µM
Cn1ccc(C(=S)Nc2ccc(Cl)c(/C=N/OC(C)(C)C)c2)c1 ; result: 13 µg/mL
CC(=O)OCCOCN1c2nc(Cc3ccccc3)[nH]c2C(N)=NS1(=O)=O ; result: 111 µg/mL
CCCCCCCCCCCCCC(=O)Nc1nc(N)nc2c1ncn2[C@H]1CO[C@@H](COP(=O)(N[C@@H](C)C(=O)OCC)Oc2ccccc2)O1 ; result: 7.5 µM
CCC1=C(C(=O)Nc2ccc(Cl)c(/C=N/OC(C)(C)C)c2)SCCO1 ; result: 11.4 µg/mL
CC(C)CCN(C[C@@H](O)[C@H](Cc1ccccc1)NC(=O)[C@H](C)CS(C)(=O)=O)S(=O)(=O)c1ccccc1 ; result: >1000 µM
Cc1sccc1C(=O)Nc1ccc(Cl)c(C(=O)OC2CCCCC2)c1 ; result: 6.5 µg/mL
O=C(O)CSC1=NNC2(C(=O)N1)c1ccccc1-c1ccccc12 ; result: 55 µM
Cc1sccc1C(=S)Nc1ccc(Cl)c(OCCC(C)C)c1 ; result: >100 µg/mL
O=C(O)CCNC(=O)c1ccccc1SSc1ccccc1C(=O)NCCC(=O)O ; result: 120 µM
Cc1ccccc1C(=S)Nc1ccc(Cl)c(C(=O)OC(C)C)c1 ; result: 5.8 µg/mL
O=C(NC1CC1)c1ccccc1SSc1ccccc1C(=O)NC1CC1 ; result: 90 µM
CCCCCCCCCCCCN1C=Cc2cc(OC)c(OC)c3c2c1cc[n+]3CCCCCCCCCCCC ; result: <1 µM
COc1ccccc1C(=S)Nc1ccc(Cl)c(C(=O)OC(C)C)c1 ; result: 27 µg/mL

The last 7 rows once more:

SMILES	result
O=C(O)CSC1=NNC2(C(=O)N1)c1ccccc1-c1ccccc12	55 µM
Cc1sccc1C(=S)Nc1ccc(Cl)c(OCCC(C)C)c1	>100 µg/mL
O=C(O)CCNC(=O)c1ccccc1SSc1ccccc1C(=O)NCCC(=O)O	120 µM
Cc1ccccc1C(=S)Nc1ccc(Cl)c(C(=O)OC(C)C)c1	5.8 µg/mL
O=C(NC1CC1)c1ccccc1SSc1ccccc1C(=O)NC1CC1	90 µM
CCCCCCCCCCCCN1C=Cc2cc(OC)c(OC)c3c2c1cc[n+]3CCCCCCCCCCCC	<1 µM
COc1ccccc1C(=S)Nc1ccc(Cl)c(C(=O)OC(C)C)c1	27 µg/mL